Compound potency records, mixed from different reports. Data source: NIAID ChemDB in PubChem.

Common to all: tests in culture; species: Candida albicans; endpoint: MIC

Conditions beyond the fields shown may differ between rows. An empty or dashed field is not shown. a–b is a range or a potency band.

smiles | strain | read by | setting | value
CCCCc1ncc(C(N)=O)nc1SC | ATCC 44859 | - | - | >31.25 µg/mL
CN(C)CCCNC(=O)c1cc(NC(=O)c2cc(NC(=O)c3cc(NC(=O)c4nsc(N5CCCCC5)c4Cl)cn3C)cn2C)cn1C | 38247 | - | - | 8 µg/mL
O=c1[nH]nc(Cc2ccc(Cl)cc2)n1CCO | ATCC16231 | - | - | >250 µg/mL
CCCCC/C=C\C/C=C/CC/C=C/[C@H]1C[C@H]([C@](O)(CC(=O)O[C@@H](C(=O)O)[C@H](CC(=O)O)C(=O)O)C(=O)O)C(=O)O1 | - | - | - | 6.9 µM
CC(CCC(=O)NCCCNCCCCNCCCN)[C@H]1CCC2C3CC[C@@H]4C[C@H](OS(=O)(=O)O)CC[C@]4(C)C3C[C@H](C)[C@@]21C | 90028 | - | - | 100 µg/mL
C[C@H]1[C@H](O)[C@@H](C)/C=C/C=C/C=C/C=C/C=C/C=C/C=C/[C@H](O[C@@H]2O[C@H](C)[C@@H](O)[C@H](N)[C@@H]2O)C[C@@H]2O[C@](O)(C[C@@H](O)C[C@@H](O)CC[C@H](O)[C@@H](O)C[C@@H](O)CC(=O)O[C@H]1C)C[C@H](O)[C@H]2C(=O)O | 10 isolates | - | - | 0.25–0.5 µg/mL
CN(C)CCCCNC(=O)c1cc(NC(=O)c2cc(NC(=O)c3cc(NC(=O)c4nsc(N5CCNCC5)c4Cl)cn3C)cn2C)cn1C | 38247 | - | - | >32 µg/mL
CCCn1nc(-c2ccccc2)n(NC)c1=O | ATCC16231 | - | - | >250 µg/mL
CCCCSc1nc(C(N)=S)cnc1C(C)(C)C | ATCC 44859 | - | - | >31.25 µg/mL
Cn1cc(NC(=O)c2cc(NC(=O)c3cc(NC(=O)c4nsc(NCCN5CCNCC5)c4Cl)cn3C)cn2C)cc1C(=O)NCCCCN | 38247 | - | - | 2 µg/mL
CCCSc1nc(C(N)=O)cnc1CCC | ATCC 44859 | - | - | >31.25 µg/mL
NC(=O)N/N=C/c1ccc([N+](=O)[O-])o1 | - | - | - | 100 µg/mL
CC(=O)Sc1c[n+](C)c2ccccc2c1Nc1ccc(F)cc1 | ATCC 10231 | broth dilution | - | 512 µg/mL
CN1CCN(C(=S)N/N=C/c2ccc([N+](=O)[O-])o2)CC1 | - | - | - | 80 µg/mL
Cc1n[nH]c(=O)n1N1C(=O)c2ccccc2C1=O | ATCC16231 | - | - | >250 µg/mL
CN[C@@H]1[C@H](O[C@@H]2OC[C@@H](O)[C@H](O)[C@H]2O)[C@@H](O)[C@H](O[C@H]2c3c(c(O)c(C(=O)N[C@H](C)C(=O)O)c(C)c3[N+](=O)[O-])-c3c(cc4c(c3O)C(=O)c3cc(OC)cc(O)c3C4=O)[C@@H]2O)O[C@@H]1C | A9540 | - | - | >100 µg/mL
CCCN(CCC)C(=S)N/N=C/c1ccc([N+](=O)[O-])o1 | - | - | - | 40 µg/mL
O=C1N(c2ccccc2)C(c2ccccc2)C1(Cl)Cl | ATCC 10231 | - | - | 125 µg/mL
O=C1NC(=O)/C(=C\c2cccc(Oc3ccccc3)c2)S1 | MTCC 227 | broth dilution / visual reading | - | 250 µg/mL
CC1(O)CC(=O)c2c(cc3ccc(-c4ccc5cc6c(c(O)c5c4O)C(=O)CC(C)(O)C6)c(O)c3c2O)C1 | - | - | - | 16 µg/mL
CCCCCCN(CCCCCC)c1ccc(/C=C2/SC(=O)NC2=O)cc1 | MTCC 227 | broth dilution / visual reading | - | 1000 µg/mL
Cc1ccc(N2C(=O)C(Cl)(Cl)C2c2ccccc2)cc1 | ATCC 10231 | - | - | 125 µg/mL
CCSc1nc(C(N)=S)cnc1C(C)(C)C | ATCC 44859 | - | - | >31.25 µg/mL
CCSc1c[n+](C)c2ccccc2c1Nc1ccc(Cl)cc1 | ATCC 10231 | broth dilution | - | 256 µg/mL
CC(C)CC1NC(=O)CC(CCCCCCCCC(C)O)OC(=O)C(CC(C)C)NC(=O)C(CC(C)C)NC(=O)C(CC(C)C)NC(=O)C(C(C)C)NC(=O)C(CC(=O)O)NC(=O)C(CC(C)C)NC1=O | ATCC 10231 | absorbance | - | 1 µg/mL
Cc1cc2c(c(O)c1C(=O)NCC(=O)O)-c1c(cc3c(c1O)C(=O)c1cc(OCC(N)=O)cc(O)c1C3=O)[C@H](O)[C@H]2O[C@@H]1O[C@H](C)[C@H](O)[C@H](O[C@@H]2OC[C@@H](O)[C@H](O)[C@H]2O)[C@H]1O | A9540 | - | - | 50 µg/mL
CCC(C)n1ncn(-c2ccc(N3CCN(c4ccc(OC[C@H]5CO[C@](Cn6cncn6)(c6ccc(Cl)cc6Cl)O5)cc4)CC3)cc2)c1=O | Isolate CA-6 | - | - | >8 µg/mL
CC(C)CNc1c(SC(=O)c2ccccc2)c[n+](C)c2ccccc12 | ATCC 10231 | broth dilution | - | 512 µg/mL
CCCCCCCCOc1ccc(C(=O)NC2C[C@@H](O)[C@@H](O)NC(=O)C3[C@@H](O)[C@@H](C)CN3C(=O)C(C(C)O)NC(=O)C([C@H](O)[C@@H](O)c3ccc(O)cc3)NC(=O)C3C[C@@H](O)CN3C(=O)C(C(C)O)NC2=O)cc1 | Lieberman | - | - | 0.5 µg/mL
CNn1c(-c2ccccc2)nn(Cc2ccccc2)c1=O | ATCC16231 | - | - | >250 µg/mL
CC[C@@H]([C@H](C)O)n1ncn(-c2ccc(N3CCN(c4ccc(OC[C@@H]5CO[C@@](Cn6cncn6)(c6ccc(F)cc6F)C5)cc4)CC3)cc2)c1=O | Isolate CA-8 | - | - | >4 µg/mL
CCCSc1nc(C(N)=S)cnc1CCC | ATCC 44859 | - | - | >31.25 µg/mL
COc1c(CN(C)C)cccc1C1OC(c2ccncc2)=NN1C(C)=Nc1ccccc1F | MTCC 227 | - | - | 3.12 µg/mL
O=C(N=Nc1c(O)[nH]c2cccc(Cl)c12)Nc1ccc([N+](=O)[O-])cc1 | - | - | - | >1.56 µg/mL
COc1cc2c(c(O)c1C[N+](C)(C)C)C(=O)c1cc3c(c(O)c1C2=O)-c1c(O)c(C(=O)N[C@H](C)C(=O)O)c(C)c(N)c1[C@H](O[C@@H]1O[C@H](C)[C@H](N(C)C)[C@H](O[C@@H]2OC[C@@H](O)[C@H](O)[C@H]2O)[C@H]1O)[C@H]3O | A9540 | - | - | >100 µg/mL
CCSc1c[n+](C)c2ccccc2c1Nc1ccccc1 | ATCC 10231 | broth dilution | - | 128 µg/mL
CCCCc1ncc(C(N)=O)nc1SCC | ATCC 44859 | - | - | >31.25 µg/mL
O=C(N=Nc1c(O)[nH]c2cc(Cl)ccc12)Nc1ccc(Br)cc1 | - | - | - | 1.56 µg/mL
COc1ccc(C2N(c3ccccc3)C(=O)C2(Cl)Cl)cc1 | ATCC 10231 | - | - | 125 µg/mL
COc1ccc(/C=C2/SC(=O)NC2=O)cc1 | MTCC 227 | broth dilution / visual reading | - | 500 µg/mL
Clc1ccccc1C(c1ccccc1)(c1ccccc1)n1ccnc1 | Clinical isolates | - | 24 h | 2 µg/mL
CC(=O)Sc1c[n+](C)c2ccccc2c1NCC(C)C | ATCC 10231 | broth dilution | - | 512 µg/mL
CN(C)c1ccc(/C=C2/SC(=O)N(CC(=O)Nc3nc4ccc(SC#N)cc4s3)C2=O)cc1 | MTCC 227 | broth dilution / visual reading | - | 200 µg/mL
CCCCCCNCCNc1snc(C(=O)Nc2cc(C(=O)Nc3cc(C(=O)Nc4cc(C(=O)NCCCN(C)C)n(C)c4)n(C)c3)n(C)c2)c1Cl | 38247 | - | - | >32 µg/mL
Cc1ccc(-n2c(C)n[nH]c2=O)cc1 | ATCC16231 | - | - | >250 µg/mL
C[n+]1cc(SC(=O)c2ccccc2)c(Nc2ccc(F)cc2)c2ccccc21 | ATCC 10231 | broth dilution | - | 256 µg/mL
N=C(N)c1ccc(OCCCCCCOc2ccc(C(=N)N)cc2)cc1 | CA2 | agar diffusion / agar | - | 33 µg/mL
CC(C)Cc1ncc(C(N)=O)nc1Sc1ccccc1 | ATCC 44859 | - | - | >31.25 µg/mL
CCc1ccc(-c2nc3cc(NC(=O)Cc4ccc(Cl)cc4)ccc3o2)cc1 | ATCC 10145 | - | - | 50 µg/mL
Fc1ccc(CCCCn2c3c(c4cc(F)ccc42)CNCC3)cc1 | 1378-48 | - | - | 1 µg/mL
COc1c(CN(C)C)cccc1C1OC(c2ccncc2)=NN1C(C)=Nc1cccc(F)c1 | MTCC 227 | - | - | 6.25 µg/mL
NC(=O)N=Nc1c(O)[nH]c2cccc(Cl)c12 | - | - | - | >1.56 µg/mL
COc1cc(OC)c2c(O)c3c(c(-c4ccc5cc6c(c(O)c5c4O)C(=O)CC(C)(O)C6)c2c1)CC(C)OC3C | - | - | - | 16 µg/mL
Cc1c(O)cccc1C(=O)N[C@@H](CSc1ccccc1)[C@H](O)CN1C[C@H]2CCCC[C@H]2C[C@H]1C(=O)NC(C)(C)C | I3 | - | - | >64 µg/mL
CCN(CC)C(=S)N/N=C/c1ccc([N+](=O)[O-])o1 | - | - | - | 40 µg/mL
CN(C)CCCNC(=O)c1cc(NC(=O)c2cc(NC(=O)c3cc(NC(=O)c4nsc(NCCCN(C)C)c4Cl)cn3C)cn2C)cn1C | 38247 | - | - | 32 µg/mL
C/C=C(\CO)C1CC2c3[nH]c4ccccc4c3CCN2C=C1C(=O)OC | - | agar diffusion | - | 95 µg/mL
COc1ccc(C2N(c3ccc(Cl)cc3)C(=O)C2(Cl)Cl)cc1 | ATCC 10231 | - | - | 125 µg/mL
O=C1CC(Sc2ccccn2)N1 | - | - | - | 8–64 µg/mL
COc1cc(/C=C2/SC(=O)N(CC(=O)Nc3nc4ccc(SC#N)cc4s3)C2=O)ccc1O | MTCC 227 | broth dilution / visual reading | - | 1000 µg/mL
O=C(N=Nc1c(O)[nH]c2cc(Cl)ccc12)Nc1ccc([N+](=O)[O-])cc1 | - | - | - | 1.56 µg/mL
CCn1nc(-c2ccc(C)cc2)n(NC)c1=O | ATCC16231 | - | - | >250 µg/mL
CC(C)(C)c1ncc(C(N)=O)nc1Sc1ccccc1 | ATCC 44859 | - | - | >31.25 µg/mL
COc1ccc(N2C(=O)C(Cl)(Cl)C2c2ccc([N+](=O)[O-])cc2)cc1 | ATCC 10231 | - | - | 125 µg/mL
N#CSc1ccc2nc(NC(=O)CN3C(=O)S/C(=C/c4ccc(F)cc4)C3=O)sc2c1 | MTCC 227 | broth dilution / visual reading | - | 500 µg/mL
C[C@@H](c1nc(-c2ccc(C#N)cc2)cs1)[C@](O)(Cn1cncn1)c1ccc(F)cc1F | E81022 | - | - | ≤0.006 µg/mL

The last 7 rows once more:

smiles | strain | read by | setting | value
COc1cc(/C=C2/SC(=O)N(CC(=O)Nc3nc4ccc(SC#N)cc4s3)C2=O)ccc1O | MTCC 227 | broth dilution / visual reading | - | 1000 µg/mL
O=C(N=Nc1c(O)[nH]c2cc(Cl)ccc12)Nc1ccc([N+](=O)[O-])cc1 | - | - | - | 1.56 µg/mL
CCn1nc(-c2ccc(C)cc2)n(NC)c1=O | ATCC16231 | - | - | >250 µg/mL
CC(C)(C)c1ncc(C(N)=O)nc1Sc1ccccc1 | ATCC 44859 | - | - | >31.25 µg/mL
COc1ccc(N2C(=O)C(Cl)(Cl)C2c2ccc([N+](=O)[O-])cc2)cc1 | ATCC 10231 | - | - | 125 µg/mL
N#CSc1ccc2nc(NC(=O)CN3C(=O)S/C(=C/c4ccc(F)cc4)C3=O)sc2c1 | MTCC 227 | broth dilution / visual reading | - | 500 µg/mL
C[C@@H](c1nc(-c2ccc(C#N)cc2)cs1)[C@](O)(Cn1cncn1)c1ccc(F)cc1F | E81022 | - | - | ≤0.006 µg/mL